Reference: patent US20120316161A1, “NOVEL ANTIVIRAL COMPOUNDS” (KATHOLIEKE UNIVERSITEIT LEUVEN, priority 2009, published 2012)

System: HIV
Type: cell-based
Settings: selectivity index, ratio of CC50 to EC50
Method: A rapid and automated assay procedure was used for the in vitro evaluation of anti-HIV agents. An HTLV-1 transformed T4-cell line MT-4, which was previously shown to be highly susceptible to and permissive for HIV infection, served as the target cell line. Inhibition of the HIV-induced cytopathogenic effect was used as the end point. The viability of both HIV-and mock-infected cells was assessed spectrophotometrically via in situ reduction of 3-(4,5-dimethylthiazol-2-yl)-2,5-diphenyltetrazolium bromide (MTT). The 50% cytotoxic concentration (CC50 in μg/ml) was defined as the concentration of compound that reduced the absorbance of the mock-infected control sample by 50%. The percent protection achieved by the compound in HIV-infected cells was calculated by the following formula: […]
whereby (ODT)HIV is the optical density measured with a given concentration of the test compound in HIV-infected cells; (ODC)HIV is the optical density measured for the control untreated HIV-infected cells; (ODC)MOCK is the optical density measured for the control untreated mock-infected cells; all optical density values were determined at 540 nm. The dose achieving 50% protection according to the above formula was defined as the 50% inhibitory concentration (EC50 in μg/ml or μM). The ratio of CC50 to EC50 was defined as the selectivity index (SI). […] Examples of inhibition of cell proliferation by particular compounds of the invention can be found by looking at the respective CC50 values in the MT-4 cell line. Cells: MT-4 cells (Miyoshi et al., 1982) were grown and maintained in RPMI 1640medium supplemented with 10% heat-inactivated fetal calf serum, 2 mM 1-glutamine, 0.1% sodium bicarbonate, and 20æg of gentamicin per ml.
Viruses: The HIV-1 (NL4.3) strain (Adachi et al., 1986) is a molecular clone obtained from the National Institutes of Health (Bethesda, Md.). The HIV-2 (ROD) (Barr, -Sinoussi et al., 1983) stock was obtained from culture supernatant of HIV-2 infected cell lines.

| Compound | SI |
| --- | --- |
| CCCC(C(=O)O)c1c(C)nc2cc(C(C)(C)C)nn2c1-c1ccccc1 (stereo not drawn) [CPD-58, 2-(2-tert-butyl-5-methyl-7-phenylpyrazolo[1,5-a]pyrimidin-6-yl)pentanoic acid] | 5 |
| CCCC(C(=O)O)c1c(C)nc2c(Br)c(C(C)(C)C)nn2c1-c1ccc(C)cc1 (stereo not drawn) [CPD-60, 2-(3-bromo-2-tert-butyl-5-methyl-7-p-tolylpyrazolo[1,5-a]pyrimidin-6-yl)pentanoic acid] | 23 |
| CCCC(C(=O)O)c1c(C)nc2cc(C(C)(C)C)nn2c1-c1ccc2sccc2c1 (stereo not drawn) [CPD-67, 2-(7-(benzo[b]thiophen-5-yl)-2-tert-butyl-5-methylpyrazolo[1,5-a]pyrimidin-6-yl)pentanoic acid] | 24 |
| CCCC(C(=O)O)c1c(C)nc2c(nc(C)n2C)c1-c1ccc(C)cc1 (stereo not drawn) [CPD-105, 2-(2,3,5-Trimethyl-7-p-tolyl-3H-imidazo[4,5-b]pyridin-6-yl)pentanoic acid] | 10 |
| CCCC(C(=O)O)c1c(C)nc2cc(C(C)(C)C)nn2c1-c1ccc(C)cc1 (stereo not drawn) [CPD-59, 2-(2-tert-butyl-5-methyl-7-p-tolylpyrazolo[1,5-a]pyrimidin-6-yl)pentanoic acid] | >18 |
| CCCC(C(=O)O)c1c(C)nc2cc(C(C)(C)C)nn2c1-c1ccc(Cl)cc1F (stereo not drawn) [CPD-79, 2-(2-tert-butyl-7-(4-chloro-2-fluorophenyl)-5-methylpyrazolo[1,5-a]pyrimidin-6-yl)pentanoic acid] | 40 |
| CCCC(C(=O)O)c1c(C)nc2cc(C(C)(C)C)nn2c1-c1ccc2c(c1)CCO2 (stereo not drawn) [CPD-68, 2-(2-tert-butyl-7-(2,3-dihydrobenzofuran-5-yl)-5-methylpyrazolo[1,5-a]pyrimidin-6-yl)pentanoic acid] | 16 |
| CCCC(C(=O)O)c1c(C)nc2cc(C(C)(C)C)nn2c1-c1ccc(C)cc1C (stereo not drawn) [CPD-98, 2-(2-tert-butyl-7-(2,4-dimethylphenyl)-5-methylpyrazolo[1,5-a]pyrimidin-6-yl)pentanoic acid] | 12 |
| CCCC(C(=O)O)c1c(C)nc2c(Cl)c(C(C)(C)C)nn2c1-c1ccc(C)cc1 (stereo not drawn) [CPD-87, 2-(2-tert-butyl-3-chloro-7-p-tolyl-5-methylpyrazolo[1,5-a]pyrimidin-6-yl)pentanoic acid] | 16 |
| CCCC(C(=O)O)c1c(C)nc2cc(C(C)(C)C)nn2c1-c1ccc(C)cc1N (stereo not drawn) [CPD-93, 2-(7-(2-amino-4-methylphenyl)-2-tert-butyl-5-methylpyrazolo[1,5-a]pyrimidin-6-yl)pentanoic acid] | 16 |
| COCCC(C(=O)O)c1c(C)nc2cc(C(C)(C)C)nn2c1-c1ccc(C)cc1 (stereo not drawn) [CPD-88, 2-(2-tert-butyl-7-p-tolyl-5-methylpyrazolo[1,5-a]pyrimidin-6-yl)-4-methoxybutanoic acid] | >7 |
| CCCC(C(=O)O)c1c(C)nc2cc(-c3ccccc3)nn2c1-c1ccc(C)cc1 (stereo not drawn) [CPD-61, 2-(5-methyl-2-phenyl-7-p-tolylpyrazolo[1,5-a]pyrimidin-6-yl)pentanoic acid] | 4 |
| CCCC(C(=O)O)c1c(C)nc2ccnn2c1-c1ccc(C)cc1 (stereo not drawn) [CPD-57, 2-(5-methyl-7-p-tolylpyrazolo[1,5-a]pyrimidin-6-yl)pentanoic acid] | >1 |
| CCCC(C(=O)O)c1c(C)nc2cc(C(C)(C)C)nn2c1-c1ccc2cc[nH]c2c1 (stereo not drawn) [CPD-65, 2-(2-tert-butyl-7-(1H-indol-6-yl)-5-methylpyrazolo[1,5-a]pyrimidin-6-yl)pentanoic acid] | 8 |
| CCCC(C(=O)O)c1c(C)nc2cc(C(C)(C)C)nn2c1-c1ccc(C(C)C)cc1 (stereo not drawn) [CPD-89, 2-(2-tert-butyl-5-methyl-7-(4-iso-propylphenyl)pyrazolo[1,5-a]pyrimidin-6-yl)pentanoic acid] | 6 |
| CCCC(C(=O)O)c1c(C)nc2cc(C(C)(C)C)nn2c1-c1ccc(Cl)cc1 (stereo not drawn) [CPD-69, 2-(2-tert-butyl-7-(4-chlorophenyl)-5-methylpyrazolo[1,5-a]pyrimidin-6-yl)pentanoic acid] | 25 |
| 2-[2-tert-butyl-7-(2-hydroxy-4-methylphenyl)-5-methylpyrazolo[1,5-a]pyrimidin-6-yl]acetic acid [CPD-117] | 57 |

| Compound | SI |
| --- | --- |
| Ethyl 2-(2-benzyl-5-methyl-7-p-tolyl-[1,2,4]-triazolo[1,5-a]pyrimidin-6-yl)pentanoate [CPD-123] | 5 |
| CCCC(C(=O)O)c1c(C)nc2cc(C(C)(C)C)nn2c1-c1ccc(OC)cc1F (stereo not drawn) [CPD-95, 2-(2-tert-butyl-7-(2-fluoro-4-methoxyphenyl)-5-methylpyrazolo[1,5-a]pyrimidin-6-yl)pentanoic acid] | 15 |
| CCCC(C(=O)O)c1c(C)nc2cc(C(C)(C)C)nn2c1-c1ccc(C(F)(F)F)cc1 (stereo not drawn) [CPD-90, 2-(2-tert-butyl-5-methyl-7-(4-trifluoromethylphenyl)pyrazolo[1,5-a]pyrimidin-6-yl)pentanoic acid] | 4 |
| CCCC(C(=O)O)c1c(C)nc2cc(C(C)(C)C)nn2c1-c1ccc(CC)cc1 (stereo not drawn) [CPD-71, 2-(2-tert-butyl-7-(4-ethylphenyl)-5-methylpyrazolo[1,5-a]pyrimidin-6-yl)pentanoic acid] | 26 |
| CCCC(C(=O)O)c1c(C)nc2cc(C(C)(C)C)nn2c1-c1ccc(F)cc1F (stereo not drawn) [CPD-91, 2-(2-tert-butyl-7-(2,4-difluorophenyl)-5-methylpyrazolo[1,5-a]pyrimidin-6-yl)pentanoic acid] | 5 |
| CCCC(C(=O)O)c1c(C)nc2c(C)c(C(C)(C)C)nn2c1-c1ccc(C)cc1 (stereo not drawn) [CPD-99, 2-(2-tert-butyl-3,5-dimethyl-7-p-tolylpyrazolo[1,5-a]pyrimidin-6-yl)pentanoic acid] | 34 |
| CCCC(C(=O)O)c1c(C)nc2c(-c3ccccc3)c(C(C)(C)C)nn2c1-c1ccc(C)cc1 (stereo not drawn) [CPD-100, 2-(2-tert-butyl-5-methyl-3-phenyl-7-p-tolylpyrazolo[1,5-a]pyrimidin-6-yl)pentanoic acid] | 4 |
| CCCC(C(=O)O)c1c(C)nc2nc(C(C)C)nn2c1-c1ccc(C)cc1 (stereo not drawn) [CPD-121, 2-(2-isopropyl-5-methyl-7-p-tolyl-[1,2,4]-triazolo[1,5-a]pyrimidin-6-yl)pentanoic acid] | >2 |
| CCCC(C(=O)O)c1c(C)nc2cc(C(C)(C)C)nn2c1-c1ccc2c(c1)OCCCO2 (stereo not drawn) [CPD-72, 2-(2-tert-butyl-7-(3,4-dihydro-2H-benzo[b][1,4]dioxepin-7-yl)-5-methylpyrazolo[1,5-a]pyrimidin-6-yl)pentanoic acid] | <6 |
| Cc1ccc(-c2c(C(CCCC(F)(F)F)C(=O)O)c(C)nc3cc(C(C)(C)C)nn23)cc1 (stereo not drawn) [CPD-81, 2-(2-tert-butyl-7-p-tolyl-5-methylpyrazolo[1,5-a]pyrimidin-6-yl)-6,6,6-trifluorohexanoic acid] | 3 |
| CCCC(C(=O)O)c1c(C)nc2cc(C(C)(C)C)nn2c1-c1ccc(C)cc1F (stereo not drawn) [CPD-80, 2-(2-tert-butyl-7-(2-fluoro-4-methylphenyl)-5-methylpyrazolo[1,5-a]pyrimidin-6-yl)pentanoic acid] | 47 |
| CCCC(C(=O)O)c1c(C)nc2cc(C(C)(C)C)nn2c1-c1ccc(C)cc1Cl (stereo not drawn) [CPD-92, 2-(2-tert-butyl-7-(2-chloro-4-methylphenyl)-5-methylpyrazolo[1,5-a]pyrimidin-6-yl)pentanoic acid] | 7 |
| CCCC(C(=O)O)c1c(C)nc2cc(C(C)(C)C)nn2c1-c1ccc(C)c(C)c1 (stereo not drawn) [CPD-70, 2-(2-tert-butyl-7-(3,4-dimethylphenyl)-5-methylpyrazolo[1,5-a]pyrimidin-6-yl)pentanoic acid] | >1 |
| CCCC(C(=O)O)c1c(C)nc2cc(-c3ccco3)nn2c1-c1ccc(C)cc1 (stereo not drawn) [CPD-78, 2-(2-(furan-2-yl)-5-methyl-7-p-tolylpyrazolo[1,5-a]pyrimidin-6-yl)pentanoic acid] | 6 |
| CCCc1cc2nc(C)c(C(CCC)C(=O)O)c(-c3ccc(C)cc3)n2n1 (stereo not drawn) [CPD-77, 2-(5-methyl-2-propyl-7-p-tolylpyrazolo[1,5-a]pyrimidin-6-yl)pentanoic acid] | 7 |
| CCCC(C(=O)O)c1c(C)nc2cc(C(C)(C)C)nn2c1-c1ccc2occc2c1 (stereo not drawn) [CPD-66, 2-(7-(benzofuran-5-yl)-2-tert-butyl-5-methylpyrazolo[1,5-a]pyrimidin-6-yl)pentanoic acid] | 9 |
